Consider three compounds from patent US4180506A, “6β-Bromo penicillanic acid” (priority 1978, dated 1979).

Sequences of proteins named here, by UniProt entry; tags and fusion partners are left off. Residues count along the entry.
UniProt P00809, 28-306 limits assumed: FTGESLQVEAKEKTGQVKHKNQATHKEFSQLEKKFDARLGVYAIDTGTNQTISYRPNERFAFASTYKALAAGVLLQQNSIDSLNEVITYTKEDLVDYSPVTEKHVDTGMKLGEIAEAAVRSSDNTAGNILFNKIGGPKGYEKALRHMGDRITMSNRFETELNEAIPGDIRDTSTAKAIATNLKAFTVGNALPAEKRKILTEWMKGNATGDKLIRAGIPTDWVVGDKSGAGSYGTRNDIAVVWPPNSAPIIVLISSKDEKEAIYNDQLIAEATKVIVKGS

In one assay the test system is β-lactamases. The experiment in a line: β-Lactamase inhibitory activity (general statement). The class given is biochemical.
Assay [1] deals with various gram positive and gram negative bacteria. As to the kind of experiment: Antibacterial activity (general statement).
The next assay deals with B. cereus β-lactamase I (Bacillus cereus, UniProt P00809). The experiment in a line: Correlation between β-lactamase inhibition and 6β-bromopenicillanic acid content in mixtures. The conditions noted are these: assuming a 1:1 enzyme inhibitor interaction.
In assay [2] the test system is two penicillinase-producing animal-pathogenic strains of Staphylococcus aureus. The experiment in a line: Disc agar diffusion tests, summary for two penicillinase-producing strains. The class given is cell-based, Staphylococcus aureus MB-3648 and MB-3649.
Assay [3] concerns various gram positive and gram negative bacteria. The note with it: literature: Clayton, J. Chem. Soc. C, 2123-2127 (1969); cited from earlier work.
Where [4] appears, read: listed as 6β-bromo penicillanic acid.
[5] abbreviates: subinhibitory concentration (1/4 MZC), extrapolated on standard/regression curve.

Like-named read-outs stand apart in the source and are kept apart here.

For the compound `CC1(C)SC2C(Br)C(=O)N2C1C(=O)O` (stereo not drawn), the β-lactamase inhibitory activity entry in the assay with β-lactamases was “the inhibitor is the 6β-bromopenicillanic acid”; in the assay with β-lactamases (setting [4]), “possesses both antibacterial and β-lactamase inhibitory activities”. The Antibacterial activity entry in assay [1] (listed as 6-β-bromo penicillanic acid) was “at levels similar to that of clavulanic acid”; in assay [1] (setting [4]), “possesses both antibacterial and β-lactamase inhibitory activities”. Moreover, the “% Inhibition of B. cereus β-lactamase I” value on B. cereus β-lactamase I was found to be 0%.
With `CC1(C)S[C@@H]2C(Br)C(=O)N2[C@H]1C(=O)O` (stereo partly drawn), in assay [2] (setting [5]), the “Potentiation of Pen G” value is reported as 64 fold and the Potentiation of ampicillin is listed as 32 fold. In addition, the “1/4 of minimum zone-inducing concentration (1/4MZC)” value in assay [2] (substance alone vs either MB3648 or MB3649) was found to be 32 µg/mL.
In the case of `CC1(C)S[C@H]2N(C(=O)C2(Br)Br)[C@H]1C(=O)O`, the Antibacterial activity result in assay [3] is reported as “did not show any significant antibacterial activity”.
